Data as given in paper PMC10597343.

By UniProt entry, the sequences of proteins in these tests, tags left out. Where a name states a change or a piece, a line headed by the entry shows the natural chain unless it says otherwise.
UniProt P0ACS9: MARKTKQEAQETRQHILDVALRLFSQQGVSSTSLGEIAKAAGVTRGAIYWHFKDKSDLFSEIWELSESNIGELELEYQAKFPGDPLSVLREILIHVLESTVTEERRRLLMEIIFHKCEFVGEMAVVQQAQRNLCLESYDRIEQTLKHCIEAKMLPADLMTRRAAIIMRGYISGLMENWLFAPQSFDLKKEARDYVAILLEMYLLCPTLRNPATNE

Target: AcrR (Escherichia coli) (UniProt P0ACS9)
Test: EMSA
Details: AcrR up to 1 uM; EMSA with LightShift Chemiluminescent EMSA Kit, AcrR 0, 0.4 and 1 uM; pH and temperature not stated; recombinant protein; probe letters rebuilt from the primers and the genome

Sequence: CGCGGATTACGGTGCTACCTCTGACGTTAGGCGAAAATATCAACGCCGCTGTTGCCTGTTACACGCCCTTGTAAAGAGACGGGAACCGGAAGCGTATCGTCGTCTTCCCCCGCCAGAGGTTCATGGTTTGCTGTGCGTTGGCTTTGCTGTTGCTGGGAAGCGGCCTGCTGCTGACCACTAAAGCTTTCGCCACTGATGTTGCTTTGCCCTAACTGAATGCCACTTTCGGCCAGCTGCGTGCGCAGTACCGGCAGCGCTGCTTCCAGGGCGGCGCGTACATGCTGATGCGGTGAAACCATCTGGATTTGCGCCTGGTTATCATCCACTTTGAGGGAGATTTGCAC (double strand) [fliLMNOPQRp]
- binding result: no binding

Sequence: CGCTGAAGCGGTAAGGAATATTCATTTGCGTCAGTTGGCTGACAATTGCGCCACCATCCTGATCGGAAAGATTGCTGAATAATGTGCGGTAGTCGGGGGCTTTCGCCCACAGGATCAGTGCGACCATGACCGCCACTGCCGCGGAACCGGCAACAATCAATGGAATTTTCGGATTCGCACGCAGGCGATTAAGCCACTCAAGAGATTTTGTCTGGGCTGCAGTCGCATTCATCGCGCACCTCGTGGCTGATTATGGACGGCGTTATTGGCAAAGTGGAACAAGACTCACTCCCGGGTCAGCAAACTCGAAAAATTGACGCTCCCATTATTTGTGCTTTCGTTTTTTTCTATCCGCCAATAAACCCGT (double strand) [fliEp]
- binding result: no binding

The exact form of at least one protein or probe is not confirmed. A negative result means that nothing was seen under these conditions.
